Results of unrelated studies side by side (data: NIAID ChemDB).

All rows: tests on isolated targets; species: HIV-1; target: Reverse transcriptase; read by: nucleotide incorporation / radiometric; endpoint: fold resistance

Rows are shuffled and stem from different studies.

{"compound": "Cc1c(Cc2c(Cl)cccc2Cl)nc(SCc2ccc(Cl)cc2)[nH]c1=O", "changes": "RT-K103N", "value": ">20"}
{"compound": "CCOCn1c(Cc2ccccc2)c(C(C)C)c(=O)[nH]c1=O", "changes": "RT-V106A P225H", "value": "109"}
{"compound": "CCC1(c2ccc(Cn3ccsc3=N)cc2)Oc2ccccc2-n2cccc2C1=O", "changes": "RT-K103N", "value": "3.125"}
{"compound": "Cc1cn([C@H]2C=C[C@@H](COP(=O)(O)OP(=O)(O)OP(=O)(O)O)O2)c(=O)[nH]c1=O", "changes": "RT-N137A", "value": "0.9"}
{"compound": "Cc1c(Cc2ccc(F)cc2)nc(SCc2ccc([N+](=O)[O-])cc2)[nH]c1=O", "changes": "RT-K103N", "value": "~1"}
{"compound": "Cc1c(Cc2c(F)cccc2F)nc(N(C)C)[nH]c1=O", "strain": "IIIB", "changes": "RT-L100I", "value": "12.5"}
{"compound": "CCC1(c2cccc(Cl)c2)Cc2ccccc2-n2cccc2C1=O", "changes": "RT-K103N", "value": "3"}
{"compound": "Cc1c(C(C)c2c(F)cccc2F)nc(N2CCOCC2)[nH]c1=O", "strain": "IIIB", "changes": "RT-V179D", "value": ">6670"}
{"compound": "Nc1ccn([C@H]2C[C@H](O)[C@@H](COP(=O)(O)OP(=O)(O)OP(=O)(O)O)O2)c(=O)n1", "changes": "RT-M184V", "value": "0.96"}
{"compound": "CCC1(c2ccc(I)cc2)Oc2ccccc2-n2cccc2C1=O", "changes": "RT-L100I", "value": "1.5"}
{"compound": "Nc1ncnc2c1ncn2[C@@H]1O[C@H](COP(=O)(O)OP(=O)(O)OP(=O)(O)O)C[C@@H]1F", "changes": "RT-L74V", "value": "3.65"}
{"compound": "Cc1c(C(C)c2c(F)cccc2F)nc(SC2CCCC2)[nH]c1=O", "changes": "RT-K103N", "value": "8"}
{"compound": "CCC1(c2ccc(CCc3ccccc3)cc2)Oc2ccccc2-n2cccc2C1=O", "changes": "RT-Y188L", "value": ">58.8"}
{"compound": "O=C(O)Cn1cnc2c(Oc3ccccc3[N+](=O)[O-])nc(NC(=O)OCc3ccccc3)nc21", "strain": "NNRTI-resistant", "changes": "Y188L", "value": "11.6"}
{"compound": "CCC1(c2cccc(I)c2)Oc2ccccc2-n2cccc2C1=O", "changes": "RT-L100I", "value": ">200"}
{"compound": "Cc1c(Cc2c(Cl)cccc2Cl)nc(SCc2ccc(F)cc2)[nH]c1=O", "changes": "RT-181I", "value": ">25"}
{"compound": "CCN1c2ncc(CCOc3ccc(C(=O)O)c4ccccc34)cc2C(=O)Nc2c(C)cc(Cl)nc21", "changes": "RT-Y188L", "value": ">10"}
{"compound": "Cc1c(Cc2c(Cl)cccc2Cl)nc(SCc2cccc(F)c2)[nH]c1=O", "changes": "RT-181I", "value": ">200"}
{"compound": "CCC1(c2cccc(Cl)c2)Oc2ccccc2-n2cccc2C1=O", "changes": "RT-V106A", "value": "5.5"}
{"compound": "CC(C)=CCN1Cc2cc(Cl)cc3[nH]c(=O)n(c23)C[C@@H]1C", "changes": "RT-V106A P225H", "value": "21"}
{"compound": "CCN1c2ncc(CCOc3ccc(/C=C(\\C)C(=O)O)c4ccccc34)cc2C(=O)Nc2c(C)cc(F)nc21", "changes": "RT-Y188L", "value": ">10"}
{"compound": "Cc1cc(C)cc(S(=O)(=O)c2c(C(=O)NNCCO)[nH]c3ccc(Cl)cc23)c1", "changes": "RT-L101I", "value": "250"}
{"compound": "Cc1c(Cc2c(Cl)cccc2Cl)nc(SCc2ccc(C(C)C)cc2)[nH]c1=O", "changes": "RT-K103N", "value": "~1"}
{"compound": "CCN1c2ncc(CCOc3ccc(C(=O)O)c4ccccc34)cc2C(=O)N(C)c2ccc(Cl)nc21", "changes": "RT-K103N Y181C", "value": "1"}
{"compound": "CC(C)=CCOc1cc(NC(=S)c2ccoc2C)ccc1Cl", "changes": "RT-V106A P225H", "value": "134"}
{"compound": "CCN1c2ncc(CCOc3ccc(S(N)(=O)=O)c4ccccc34)cc2C(=O)N(C)c2cccnc21", "changes": "RT-V106A", "value": "1–10"}
{"compound": "O=C(O)Cn1cnc2c(=O)[nH]c(NC(=O)OCc3ccccc3)nc21", "strain": "NNRTI-resistant", "changes": "Y188L", "value": "5.47"}
{"compound": "CCC1(c2ccc(CNc3cccc(F)c3)cc2)Oc2ccccc2-n2cccc2C1=O", "changes": "RT-V106A", "value": "3.75"}
{"compound": "Cc1c(Cc2c(Cl)cccc2Cl)nc(S(=O)(=O)Cc2ccc(Br)cc2)[nH]c1=O", "changes": "RT-181I", "value": "~1"}
{"compound": "Nc1nc2c(ncn2[C@H]2C[C@H](O)[C@@H](COP(=O)(O)OP(=O)(O)OP(=O)(O)O)O2)c(=O)[nH]1", "changes": "RT-T215Y", "value": "0.6"}
{"compound": "Cc1c(Cc2c(Cl)cccc2Cl)nc(SCc2ccccc2)[nH]c1=O", "changes": "RT-181I", "value": ">160"}
{"compound": "CCN1c2ncc(CCOc3ccc(CCC(=O)O)c4ccccc34)cc2C(=O)Nc2c(C)ccnc21", "changes": "RT-Y188L", "value": ">10"}
{"compound": "Cc1cn([C@H]2C=C[C@@H](COP(=O)(O)OP(=O)(O)OP(=O)(O)O)O2)c(=O)[nH]c1=O", "changes": "RT-Q151M", "value": "3.03"}
{"compound": "COc1cc(CSc2nc(Cc3c(F)cccc3F)c(C)c(=O)[nH]2)cc(OC)c1", "changes": "RT-K103N", "value": "~1"}

A second listing of 5 rows from above:

{"compound": "CCN1c2ncc(CCOc3ccc(CCC(=O)O)c4ccccc34)cc2C(=O)Nc2c(C)ccnc21", "changes": "RT-Y188L", "value": ">10"}
{"compound": "Cc1c(Cc2c(Cl)cccc2Cl)nc(SCc2ccc(F)cc2)[nH]c1=O", "changes": "RT-181I", "value": ">25"}
{"compound": "Nc1ncnc2c1ncn2[C@@H]1O[C@H](COP(=O)(O)OP(=O)(O)OP(=O)(O)O)C[C@@H]1F", "changes": "RT-L74V", "value": "3.65"}
{"compound": "CCC1(c2cccc(Cl)c2)Cc2ccccc2-n2cccc2C1=O", "changes": "RT-K103N", "value": "3"}
{"compound": "Cc1c(Cc2ccc(F)cc2)nc(SCc2ccc([N+](=O)[O-])cc2)[nH]c1=O", "changes": "RT-K103N", "value": "~1"}

Two numbers with a dash give a range or band. Fold resistance: result on the changed form divided by that on wild type.